A mixed list of measured activities; the numbers were collected in NIAID ChemDB.

Common to all: tests in culture; species: Herpes simplex virus 2

An empty or dashed field is not shown.

structure,endpoint,dose,cell line,read by,strain,result
Nc1nc2c(ncn2CC[C@H](O)CO)c(=O)[nH]1,EC50,-,BHK,plaque count,91075,70 µM
Nc1nc(=O)n([C@H]2C[C@H](O)[C@@H](CO)O2)cc1F,EC90,-,HeLa,virus yield,-,5 µM
CC(C)=CCCC(CO)C1CCC2C3CC=C4C[C@H](O)[C@@H](O)CC4(C)C3CCC12C,inhibition,10 µg/mL,VERO,plaque count,G,33.3%
Nc1nc2c(ncn2COCCO)c(=O)[nH]1,EC50,-,HFF,cytopathic effect,R-326 (acyclovir-susceptible),1 µg/mL
O=c1[nH]c(=O)n([C@H]2C[C@H](O)[C@@H](CO)O2)cc1/C=C/Br,inhibition,2.3 µg/mL,PRK,cytopathic effect,G,≥25%
Cc1nc(N(C)C(=O)Cc2ccc(-c3ccccn3)cc2)sc1S(N)(=O)=O,EC90,-,HEF,plaque count,2 (G),0.91 µM
Cc1cn([C@@H]2O[C@H](CO)[C@@H](O)[C@@H]2F)c(=O)[nH]c1=O,inhibition,2.5 µM,VERO,virus yield,G,90%
CC(=O)O[C@H]1CC2=CCC3C(CCC4(C)C(C(CCC=C(C)C)COS(=O)(=O)O)CCC34)C2(C)C[C@@H]1OS(=O)(=O)O,inhibition,20 µg/mL,VERO,plaque count,G,41%
OC[C@H]1O[C@H](c2cc(Br)c(F)cc2F)C[C@@H]1O,EC50,-,E6SM,cytopathic effect,196,>400 µg/mL
O=C(NCc1ccc(Cl)cc1)c1cn2c3c(cc(CN4CCOCC4)cc3c1=O)OC(c1cccnc1)C2,EC50,-,HFF,plaque count,Jensen (wild type),12.8 µM
O=c1[nH]c(=O)n([C@H]2C[C@H](O)[C@@H](CO)O2)cc1I,MIC,-,-,-,E304,11 µg/mL
CC(C)=CCCC(COS(=O)(=O)O)C1CCC2C3CC=C4C[C@H](O)[C@@H](OS(=O)(=O)O)CC4(C)C3CCC12C,inhibition,80 µg/mL,VERO,plaque count,G,95.5%
O=c1ccn([C@@H]2O[C@H](CO)[C@@H](O)[C@@H]2F)c(=O)[nH]1,inhibition,5 µM,VERO,virus yield,G,98.9%
O=c1[nH]c(=O)n([C@@H]2O[C@H](CO)[C@@H](O)[C@@H]2F)cc1I,inhibition,0.1 µg/mL,VERO,cytopathic effect,K979,≥25%
OC[C@H]1O[C@@H](c2cc(F)c(F)cc2F)C[C@@H]1O,EC50,-,E6SM,cytopathic effect,LYONS,>400 µg/mL
CC(C)=CCC[C@@H](COS(=O)(=O)O)C1CCC2C3CC[C@H]4C[C@H](OS(=O)(=O)O)[C@@H](O)CC4(C)C3CCC21C,inhibition,20 µg/mL,VERO,plaque count,G,30.3%
Nc1ccn([C@H]2O[C@@H](CO)[C@H](O)[C@H]2F)c(=O)n1,inhibition,0.5 µM,VERO,virus yield,G,11%
O=c1[nH]c(=O)n([C@H]2C[C@H](O)[C@@H](CO)O2)cc1CCCl,inhibition,3 µg/mL,HEP-2,cytopathic effect,K979,≥25%
OC[C@H]1O[C@H](c2ccc(F)cc2F)C[C@@H]1O,EC50,-,E6SM,cytopathic effect,G,>400 µg/mL
O=c1[nH]c(=O)n([C@H]2C[C@H](O)[C@@H](CO)O2)cc1I,EC99,-,PRK,virus yield,G,0.8 µg/mL
Nc1nc2c(ncn2CCCCO)c(=O)[nH]1,EC50,-,BHK,plaque count,91075,13 µM
Nc1ccn([C@@H]2O[C@H](CO)C[C@H]2O)c(=O)n1,EC90,-,HeLa,virus yield,-,>250 µM
Nc1nc(=O)n([C@@H]2O[C@H](CO)[C@@H](O)[C@@H]2F)cc1I,inhibition,0.03 µg/mL,PRK,cytopathic effect,G,≥25%
Cn1cc(C(=O)NCc2ccc(Cl)cc2)c(=O)c2cc(CN3CCOCC3)ccc21,EC50,-,HFF,plaque count,11572 (ACV-resistant),2.6 µM
COc1cc(F)c([C@H]2C[C@H](O)[C@@H](CO)O2)cc1[N+](=O)[O-],EC50,-,E6SM,cytopathic effect,196,>400 µg/mL
Nc1nc(=O)n([C@@H]2O[C@H](CO)[C@@H](O)[C@@H]2F)cc1I,inhibition,1 µM,VERO,virus yield,G,99.64%
O=c1[nH]c(=O)n([C@H]2C[C@H](O)[C@@H](CO)O2)cc1/C=C/Br,EC99,-,PRK,virus yield,G,3 µg/mL
Nc1nc2c(ncn2COCCO)c(=O)[nH]1,EC90,-,VERO,plaque count,196,1.1 µM

Repeating the first 2 entries:

Nc1nc2c(ncn2CC[C@H](O)CO)c(=O)[nH]1 ; endpoint: EC50 ; cell line: BHK ; read by: plaque count ; strain: 91075 ; result: 70 µM
Nc1nc(=O)n([C@H]2C[C@H](O)[C@@H](CO)O2)cc1F ; endpoint: EC90 ; cell line: HeLa ; read by: virus yield ; result: 5 µM

Inhibition is in % at the dose shown (toxicity tests: loss of growth or viability). Conditions beyond the fields shown may differ between rows. ECn: concentration that inhibits the pathogen or its effect by n%.